Molecular target: Protease (Human immunodeficiency virus 1, UniProt Q9YQ12)
Assay: Inhibition of HIV-1 NL4-3 wild type protease expressed in Escherichia coli preincubated for 20 mins by FRET analysis

Cc1cccc(C)c1OCC(=O)N[C@@H](Cc1ccccc1)[C@@H](O)C[C@H](Cc1ccccc1)NC(=O)[C@H](C(C)C)N1CCCNC1=O [LOPINAVIR]
IC50: 2.5 nM
